Laboratory results from patent US11052151B2, “Diagnosis and treatment of autism spectrum disorder” (California Institute of Technology, priority 2012, dated 2021).

Assay: Metabolomics screening (GC/LC-MS) of sera after B. fragilis treatment of MIA offspring
Format: in vivo, mice
Settings: poly(I:C)+B. fragilis offspring relative to saline controls, p<0.05

## linolenate [alpha or gamma; (18:3n3 or 6)]
  I:C-Bfrag / CON (fold change of serum metabolite): 0.62

## suberate (octanedioate)
  I:C-Bfrag / CON (fold change of serum metabolite): 0.69
